Values from PubChem BioAssay AID504761 (Drosophila RNAi Screening Center, 2011)

Test: 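Fly genes whose silencing reduces dengue virus type 2 infection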 (primary screen)
System: D.Mel-2 cells from Drosophila
Knock-down reagent: long dsRNA against Drosophila genes
Challenge: infection with dengue virus type 2; dose and infection time not stated
Measurement: 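Per well on two replicate plates, imaging gave the percent of cells positive for viral envelope protein, ranked by infection, and a nuclear count of cells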
Direction: infection score: higher = more virus-infected cells; cell count: higher = more cells in the well
Call rule: 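Low infection ranks in the two replicates (chance level up to 0.065) followed by a retest with a 1.5-fold or larger significant decrease, p below 0.05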
Calls: active = confirmed: knock-down lowers infection; inactive = not picked or not confirmed
The screen tested about 22,000 reagents; shown is a random part of those with a known target gene and a result. Over the whole deposit, 116 (0.52%) got an active call. 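Calls depend on retest data that are not deposited; infection was ranked per plate without normalising between plates; the unit of the infection score is not given.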 Raw values are not corrected between plates. Names joined by + are all predicted targets of the reagent. Further read-outs or replicates are left out here. Not given: the amount of reagent, the time to read-out.

With Pkcdelta (GeneID 32191) [DRSC19356], what does the deposit list?
infection score, replicate 1: 1.63; cell count, replicate 1: 6866; outcome: inactive

Which result is listed for Pkcdelta (GeneID 32191) [DRSC19399]?
infection score, replicate 1: 1.22; cell count, replicate 1: 6394; outcome: inactive

Which result is listed for Pkcdelta (GeneID 32191) [DRSC27039]?
infection score, replicate 1: 8.69; cell count, replicate 1: 6401; outcome: inactive

Which result is listed for CG6398 (GeneID 32761) [DRSC19992]?
infection score, replicate 1: 4.68; cell count, replicate 1: 6384; outcome: inactive

What did the screen give for Rtc1 (GeneID 32338) [DRSC20285]?
infection score, replicate 1: 18.1; cell count, replicate 1: 5629; outcome: inactive

For CG14187 (GeneID 40199) [DRSC10186], what does the deposit list?
infection score, replicate 1: 4.4; cell count, replicate 1: 6181; outcome: inactive

With CG14187 (GeneID 40199) [DRSC26776], how do the results read?
infection score, replicate 1: 7.05; cell count, replicate 1: 6399; outcome: inactive

With CG3165 (GeneID 33503) [DRSC00573], what was measured?
infection score, replicate 1: 2.75; cell count, replicate 1: 6178; outcome: inactive

For CAH4 (GeneID 42965) [DRSC22433], what does the deposit list?
infection score, replicate 1: 0.58; cell count, replicate 1: 6507; outcome: inactive

With CG18343 (GeneID 36297) [DRSC06726], what was measured?
infection score, replicate 1: 4.19; cell count, replicate 1: 6557; outcome: inactive

Which result is listed for Stt3A (GeneID 33082) [DRSC20514]?
infection score, replicate 1: 2.88; cell count, replicate 1: 6448; outcome: inactive

For Stt3A (GeneID 33082) [DRSC24884], what was measured?
infection score, replicate 1: 1.56; cell count, replicate 1: 6715; outcome: inactive

For mRpL11 (GeneID 41757) [DRSC15482], what does the deposit list?
infection score, replicate 1: 22.9; cell count, replicate 1: 5092; outcome: inactive

What is on record for Rbm13 (GeneID 31818) [DRSC17749]?
infection score, replicate 1: 3; cell count, replicate 1: 3336; outcome: inactive

For Rbm13 (GeneID 31818) [DRSC25416], what was measured?
infection score, replicate 1: 5.09; cell count, replicate 1: 2905; outcome: inactive

How did the screen score CG14983 (GeneID 38466) [DRSC08441]?
infection score, replicate 1: 1.38; cell count, replicate 1: 6818; outcome: inactive

How did the screen score CG14983 (GeneID 38466) [DRSC26428]?
infection score, replicate 1: 3.41; cell count, replicate 1: 6387; outcome: inactive

How did the screen score brwl (GeneID 34275) [DRSC01080]?
infection score, replicate 1: 2.84; cell count, replicate 1: 5324; outcome: inactive

How did the screen score brwl (GeneID 34275) [DRSC24965]?
infection score, replicate 1: 10.9; cell count, replicate 1: 6871; outcome: inactive

What is on record for Tsen34 + Trl [DRSC10014]?
infection score, replicate 1: 1.92; cell count, replicate 1: 6296; outcome: inactive

Which result is listed for Hgsnat (GeneID 31423) [DRSC18405]?
infection score, replicate 1: 14.8; cell count, replicate 1: 3318; outcome: inactive

How did the screen score Hgsnat (GeneID 31423) [DRSC24716]?
infection score, replicate 1: 3.94; cell count, replicate 1: 6622; outcome: inactive

How did the screen score siz (GeneID 40327) [DRSC11622]?
infection score, replicate 1: 4.49; cell count, replicate 1: 6348; outcome: inactive

What is on record for siz (GeneID 40327) [DRSC11690]?
infection score, replicate 1: 10.9; cell count, replicate 1: 6380; outcome: inactive

For siz (GeneID 40327) [DRSC27379], what was measured?
infection score, replicate 1: 35.6; cell count, replicate 1: 5986; outcome: inactive

For CG9915 (GeneID 32593) [DRSC21565], how do the results read?
infection score, replicate 1: 1.7; cell count, replicate 1: 6064; outcome: inactive

For CG9915 (GeneID 32593) [DRSC27327], what was measured?
infection score, replicate 1: 2.09; cell count, replicate 1: 6071; outcome: inactive

4 of these entries in another layout:
{"gene": "Hgsnat (GeneID 31423)", "amplicon": "DRSC18405", "infection score, replicate 1": 14.8, "cell count, replicate 1": 3318, "outcome": "inactive"}
{"gene": "Hgsnat (GeneID 31423)", "amplicon": "DRSC24716", "infection score, replicate 1": 3.94, "cell count, replicate 1": 6622, "outcome": "inactive"}
{"gene": "siz (GeneID 40327)", "amplicon": "DRSC11622", "infection score, replicate 1": 4.49, "cell count, replicate 1": 6348, "outcome": "inactive"}
{"gene": "siz (GeneID 40327)", "amplicon": "DRSC11690", "infection score, replicate 1": 10.9, "cell count, replicate 1": 6380, "outcome": "inactive"}
